Here are results for five molecules from US20240109955A1 (published 2024).

Experiment in all cases: cell-based or functional assay
For experiment [1], the target named is SARS-CoV-2 spike (S) protein, Omicron sublineage BA.2.12.1 (SARS-CoV-2, UniProt P0DTC2 14-1273).
Experiment [2] concerns the target SARS-CoV-2 spike (S) protein, Omicron sublineage BA.2 (SARS-CoV-2, UniProt P0DTC2 14-1273).
Experiment [3] has as its target SARS-CoV-2 Omicron XBB spike protein (SARS-CoV-2).
For experiment [4], the target named is SARS-CoV-2 Omicron BA.4/5 spike protein (SARS-CoV-2).
The target of experiment [5] is SARS-CoV-2 Omicron BQ.1.1 spike protein (SARS-CoV-2).
In experiment [6] the target is SARS-CoV-2 Omicron BQ.1 spike protein (SARS-CoV-2).
In experiment [7] the target is SARS-CoV-2 Omicron BA.2.75.2 spike protein (SARS-CoV-2).

Numbering of substitutions follows the chain as printed.

B1: MX837 (other)
chain 1: QTVVTQEPSFSVSPGGTVTLTCGLSSGSVSTAYFPSWYQQTPGQAPRTLIYGTNTRSSGVPDRFSGSILGNKAALTITGAQADDESDYYCVLYMGRGIVVFGGGTKLTVLGGSSGEIVLTQSPGTLSLSPGERATLSCRASQSVSSSYLAWYQQKPGQAPRLLIYSASSRATGIPDRFSGSGSGTDFTLTISRLEPEDFAVYFCQQYVGLTGWTFGQGTKVEIKGGGGSGGSGSGGGGSASGSGQMQLVQSGPEVKKPGTSVKVSCKASGFTFTSSAVQWVRQRQRLEWIGWIVVGSGNTNYAQKFQERVTITRDMSTSTAYMELSSLRSEDTAVYYCAAPNCSNVVCYDGFDIWGQGTMVTVSSGGSSGQVQLVESGGGVVQPGRSLRLSCAASGFTLSSYGMHWVRQAPGKGLEWVAVISYDGSNKYYVDSVKGRFTISRDNSKNTLYLQMNSLRAEDTAVYYCRWAYWELLPDYYYGMDVWGQGTTVTVSSASGGSGDKTHTCPPCPAPELLGGPSVFLFPPKPKDTLMISRTPEVTCVVVDVSHEDPEVKFNWYVDGVEVHNAKTKPREEQYNSYVVSVLTVLHQDWLNGKEYKCKVSNKALPAPIEKTISKAKGQPREPQVYTLPPCRDELTKNQVSLWCLVKGFYPSDIAVEWESNGQPENNYKTTPPVLDSDGSFFKKLTVDKSRWQQGNVFSCSVLHEALHSHYTQKSLSLSPG
chain 2: DIQMTQSPSSVSASVGDRVIITCRASQGISSWLAWYQQKPGKAPKVLIYDASSLQSGVPSRFSGSGYGTDFTLTISSLQPEDSATYYCQQAKSFPITFGQGTRLEIKGGSSGEIVLTQSPGTLSLSPGERATLSCRASQSVSSSYLAWYQQKPGQAPRLLIYSASSRATGIPDRFSGSGSGTDFTLTISRLEPEDFAVYFCQQYVGLTGWTFGQGTKVEIKGGGGSGGSGSGGGGSASGSGQMQLVQSGPEVKKPGTSVKVSCKASGFTFTSSAVQWVRQRQRLEWIGWIVVGSGNTNYAQKFQERVTITRDMSTSTAYMELSSLRSEDTAVYYCAAPNCSNVVCYDGFDIWGQGTMVTVSSGGSSGQVQLVESGGGVVQPGRSLRLSCAASGFTFSSYAFHWVRQAPGKGLEWVAVISYDGSNQYYADSVKGRFTISRDNSKNTLYLQMNSLRADDTAVYYCARDLAIAVAGTWHYYNGMDVWGQGTTVTVSSASGGSGDKTHTCPPCPAPELLGGPSVFLFPPKPKDTLMISRTPEVTCVVVDVSHEDPEVKFNWYVDGVEVHNAKTKPREEQYNSYVVSVLTVLHQDWLNGKEYKCKVSNKALPAPIEKTISKAKGQPREPQVCTLPPSRDELTKNQVSLSCAVKGFYPSDIAVEWESNGQPENNYKTTPPVLDSDGSFFLVSKLTVDKSRWQQGNVFSCSVLHEALHSHYTQKSLSLSPG
For B1, in experiment [1], the “IC50, pseudovirus neutralization” value amounted to 5.76 nM and the “IC80, pseudovirus neutralization” value came to 17.5 nM. Besides, in experiment [2], the “IC50, pseudovirus neutralization” value was 2.06 nM and the “IC80, pseudovirus neutralization” value was determined as 7.07 nM.

B2: MX838 (other)
chain 1: B1 chain 1 with V208G
chain 2: B1 chain 2 with V205G
In the case of B2, in experiment [1], the “IC50, pseudovirus neutralization” value is 6.01 nM and the “IC80, pseudovirus neutralization” value was 18.4 nM. Also, in experiment [2], the “IC50, pseudovirus neutralization” value came to 3.82 nM and the “IC80, pseudovirus neutralization” value was found to be 23.8 nM.

B3: MX835 (other)
chain 1: B1 chain 1 with V208G
chain 2: EIVLTQSPGTLSLSPGERATLSCRASQSVSSSYLAWYQQKPGQAPRLLIYSASSRATGIPDRFSGSGSGTDFTLTISRLEPEDFAVYFCQQYGGLTGWTFGQGTKVEIKGGSSGDIQMTQSPSSVSASVGDRVIITCRASQGISSWLAWYQQKPGKAPKVLIYDASSLQSGVPSRFSGSGYGTDFTLTISSLQPEDSATYYCQQAKSFPITFGQGTRLEIKGGGGSGGSGSGGGGSASGSGQVQLVESGGGVVQPGRSLRLSCAASGFTFSSYAFHWVRQAPGKGLEWVAVISYDGSNQYYADSVKGRFTISRDNSKNTLYLQMNSLRADDTAVYYCARDLAIAVAGTWHYYNGMDVWGQGTTVTVSSGGSSGQMQLVQSGPEVKKPGTSVKVSCKASGFTFTSSAVQWVRQRQRLEWIGWIVVGSGNTNYAQKFQERVTITRDMSTSTAYMELSSLRSEDTAVYYCAAPNCSNVVCYDGFDIWGQGTMVTVSSASGGSGDKTHTCPPCPAPELLGGPSVFLFPPKPKDTLMISRTPEVTCVVVDVSHEDPEVKFNWYVDGVEVHNAKTKPREEQYNSYVVSVLTVLHQDWLNGKEYKCKVSNKALPAPIEKTISKAKGQPREPQVCTLPPSRDELTKNQVSLSCAVKGFYPSDIAVEWESNGQPENNYKTTPPVLDSDGSFFLVSKLTVDKSRWQQGNVFSCSVLHEALHSHYTQKSLSLSPG
Regarding B3, in experiment [1], the “IC50, pseudovirus neutralization” value came out at 3.06 nM and the “IC80, pseudovirus neutralization” value came out at 13.4 nM. Further, in experiment [2], the “IC50, pseudovirus neutralization” value turned out to be 3.22 nM and the “IC80, pseudovirus neutralization” value stood at 17.1 nM.

B4: A23-58L93VGLTG (antibody, V domains shown)
VH: QMQLVQSGPEVKKPGTSVKVSCKASGFTFTSSAVQWVRQRQRLEWIGWIVVGSGNTNYAQKFQERVTITRDMSTSTAYMELSSLRSEDTAVYYCAAPNCSNVVCYDGFDIWGQGTMVTVSS
VL: EIVLTQSPGTLSLSPGERATLSCRASQSVSSSYLAWYQQKPGQAPRLLIYSASSRATGIPDRFSGSGSGTDFTLTISRLEPEDFAVYFCQQYVGLTGWTFGQGTKVEIK
Turning to B4, the “IC50, pseudovirus neutralization” value in experiment [3] is greater than 10 µg/mL; in experiment [4], 0.0052 µg/mL; in experiment [5] it was 0.0303 µg/mL; in experiment [6], 0.0235 µg/mL; in experiment [7], greater than 10 µg/mL. Also, the “IC80, pseudovirus neutralization” value in experiment [3] is greater than 10 µg/mL; in experiment [4], 0.0135 µg/mL; in experiment [5], 1.32 µg/mL; in experiment [6], 0.0877 µg/mL; in experiment [7], greater than 10 µg/mL.

B5: MX1049 (bispecific antibody)
chain: EIVLTQSPGTLSLSPGERATLSCRASQSVSSSYLAWYQQKPGQAPRLLIYSASSRATGIPDRFSGSGSGTDFTLTISRLEPEDFAVYFCQQYVGLTGWTFGQGTKVEIKGGSSGDTVMTQSPLSLPVTPGEPASISCRSSQSLLNSNGYNYLDWYVQKPGQSPQLLIYLGSNRASGVPDRFSGSGSGTDFTLKISRVEAEDVGVYYCMQPLQTPLFTFGPGTKVEIKGGGGSGGSGSGGGGSASGSGQVTLRESGPALVKPTQTLTLTCTFSGFSLSTRGVCVSWIRQPPGKALEWLAFIDWDDDKYYNTSLKTRLTISKDTSKNQVVLTMTNVHPVDTATYYCARISSHHGSSWCTTFDYWGQGALVTVSAGGSSGQMQLVQSGPEVKKPGTSVKVSCKASGFTFTSSAVQWVRQRQRLEWIGWIVVGSGNTNYAQKFQERVTITRDMSTSTAYMELSSLRSEDTAVYYCAAPNCSNVVCYDGFDIWGQGTMVTVSSASGGSGDKTHTCPPCPAPELLGGPSVFLFPPKPKDTLMISRTPEVTCVVVDVSHEDPEVKFNWYVDGVEVHNAKTKPREEQYNSYVVSVLTVLHQDWLNGKEYKCKVSNKALPAPIEKTISKAKGQPREPQVYTLPPSRDELTKNQVSLTCLVKGFYPSDIAVEWESNGQPENNYKTTPPVLDSDGSFFKKLTVDKSRWQQGNVFSCSVLHEALHSHYTQKSLSLSPG
As to B5, the “IC50, pseudovirus neutralization” value is 0.156 µg/mL in experiment [3]; 0.00347 µg/mL in experiment [4]; 0.0645 µg/mL in experiment [5]; 0.0226 µg/mL in experiment [6]; 0.00636 µg/mL in experiment [7]. For the same molecule, the “IC80, pseudovirus neutralization” value came to 4.53 µg/mL in experiment [3]; 0.0106 µg/mL in experiment [4]; 2.18 µg/mL in experiment [5]; 0.103 µg/mL in experiment [6]; 0.0171 µg/mL in experiment [7].
